Measurements: paper PMC8703412 (Pharmaceuticals, 2021)
Like-named read-outs stand apart in the source and are kept apart here.

Key:
[1] = tested on: Mycobacterium tuberculosis strain 331/88 (i.e., H37Rv); experiment: MIC micromethod in Šula's medium, drug-susceptible Mtb.; assay type: cell-based
[2] = tested on: Mycobacterium kansasii 6509/96 (clinical isolate); experiment: MIC micromethod in Šula's medium, M. kansasii; assay type: cell-based; conditions: SI = IC50 (HepG2)/MIC

SMILES	SI for Mtb. 331/88 ([1]; SI = IC50 (HepG2)/MIC)	SI for M. kansasii 6509/96 [2]	SI for Mtb. 331/88 [1]
NNC(=O)c1ccncc1 [INH 1, Isoniazid, reference compound]	>1000	≥62.5	–
C/C(=N\NC(=O)c1ccncc1)C(=O)Oc1cc(Cl)ccc1Oc1ccc(Cl)cc1Cl [3o, 5-Chloro-2-(2,4-dichlorophenoxy)phenyl (E)-2-(2-isonicotinoylhydrazineylidene)propanoate]	–	≥26.4	1687
COC(=O)/C(C)=N/NC(=O)c1ccncc1 [3a, Methyl (E)-2-(2-isonicotinoylhydrazineylidene)propanoate]	≥4000	≥125	–
C/C(=N\NC(=O)c1ccncc1)C(=O)Oc1cc(C(C)C)ccc1C [3l, 2-Isopropyl-5-methyphenyl (E)-2-(2-isonicotinoylhydrazineylidene)propanoate]	–	>4000	>4000
CCSC(=O)/C(C)=N/NC(=O)c1ccncc1 [3r, S-Ethyl (E)-2-(2-isonicotinoylhydrazineylidene)propanethioate]	–	≥250	–
C/C(=N\NC(=O)c1ccncc1)C(=O)Oc1ccc(F)cc1 [3f, 4-Fluorophenyl (E)-2-(2-isonicotinoylhydrazineylidene)propanoate]	≥2000	≥250	–
C/C(=N\NC(=O)c1ccncc1)C(=O)Oc1ccc(Br)cc1 [3h, 4-Bromophenyl (E)-2-(2-isonicotinoylhydrazineylidene)propanoate]	≥4000	≥62.5	–
C/C(=N\NC(=O)c1ccncc1)C(=O)OCc1ccncc1 [3n, Pyridin-4-ylmethyl (E)-2-(2-isonicotinoylhydrazineylidene)propanoate]	≥1000	≥62.5	–
C/C(=N\NC(=O)c1ccncc1)C(=O)Oc1cccc2cccnc12 [3m, Quinolin-8-yl (E)-2-(2-isonicotinoylhydrazineylidene)propanoate]	–	≥61.7	≥493
C/C(=N\NC(=O)c1ccncc1)C(=O)Oc1ccc(Oc2ccccc2)cc1 [3e, 4-Phenoxyphenyl (E)-2-(2-isonicotinoylhydrazineylidene)propanoate]	≥1102	≥137.8	–
C/C(=N\NC(=O)c1ccncc1)C(=O)Oc1ccc(C)cc1 [3c, p-Tolyl (E)-2-(2-isonicotinoylhydrazineylidene)propanoate]	≥2000	≥125	–
